Pooled drug test results. Numbers come from NIAID ChemDB, via PubChem.

Shared fields: growth or infection tests; agent: Herpes simplex virus 2; endpoint: MIC

Lines come from different laboratories, so protocols vary.

| compound | strain | value |
|---|---|---|
| O=c1[nH]c(=O)n([C@H]2C[C@H](O)[C@@H](CO)O2)cc1I | MS | 3.2 µg/mL |
| CCn1nc(CC(=O)N/N=C/c2ccco2)nc1C | G | >400 µg/mL |
| Nc1nccc2c1ncn2[C@@H]1C[C@H](CO)[C@@H](O)[C@H]1O | G | >400 µg/mL |
| O=c1[nH]c(=O)n([C@H]2C[C@H](O)[C@@H](CO)O2)cc1/C=C/Br | - | 100 µg/mL |
| Nc1nc2c(ccn2[C@@H]2C[C@H](CO)[C@@H](O)[C@@H]2O)c(=O)[nH]1 | - | 25 µg/mL |
| Nc1ncnc2c1ncn2[C@@H]1CC[C@@H](O)[C@H]1O | G | >400 µg/mL |
| CCn1nc(CC(=O)NN=C(C)C)nc1C | G | >400 µg/mL |
| O=c1[nH]c(=O)n([C@@H]2O[C@H](CO)[C@@H](O)[C@@H]2O)cc1/C=C/Br | - | 100 µg/mL |
| O=c1[nH]c(=O)n([C@H]2C[C@H](O)[C@@H](CO)O2)cc1I | E304 | 11 µg/mL |
| CCSc1ncnc2c1ncn2[C@@H]1OC2COP(=O)(O)OC2[C@H]1O | MS | 100 µg/mL |
| O=c1[nH]c(=O)n([C@H]2C[C@H](O)[C@@H](CO)O2)cc1I | - | 3.2 µg/mL |
| CCc1nc(CC(=O)NN=C(C)C)nn1CC | G | >400 µg/mL |
| O=c1ccn([C@@H]2O[C@H](CO)[C@@H](O)[C@H]2O)c(=O)[nH]1 | MS | 100 µg/mL |
| O=P1(O)OCC2O[C@@H](n3cnc4c(=S)nc[nH]c43)[C@H](O)C2O1 | MS | 3.2 µg/mL |
| Cc1cn([C@@H]2O[C@H](CO)[C@@H](O)[C@@H]2O)c(=O)[nH]c1=O | MS | 1 µg/mL |
| CCSC1NN=C(Cc2nc(C)n(C)n2)N1c1ccccc1 | G | 80 µg/mL |
| Nc1nccc2c1ncn2[C@@H]1CC[C@@H](O)[C@H]1O | G | >400 µg/mL |
| CCc1cn([C@@H]2O[C@H](CO)[C@@H](O)[C@@H]2O)c(=O)[nH]c1=O | MS | 100 µg/mL |
| Cc1nc(Cc2n[nH]c(=S)n2-c2ccccc2)nn1C | G | 400 µg/mL |

An empty or dashed field is not shown.